A mixed list of measured activities; the numbers were collected in NIAID ChemDB.

Common to all: growth or infection tests; organism: HIV-1

Rows are shuffled and stem from different studies. Inhibition is in % at the dose shown (toxicity tests: loss of growth or viability). ECn is the concentration giving n% inhibition of infection, replication or growth. Fold resistance: result on the changed form divided by that on wild type. An empty or dashed field is not shown.

SMILES,strain or isolate,changes,cell line,read by,setting,endpoint,tested at,value
CC(C)c1nc(CN(C)C(=O)N[C@H](C(=O)N[C@@H](Cc2ccccc2)C[C@H](O)[C@H](Cc2ccccc2)NC(=O)OCc2cncs2)C(C)C)cs1,NL4-3,PR-D30N M46I A71V,MT-4,p24,-,EC90,-,0.04 µM
c1cc(CN2CCCNCCNCCCNCC2)ccc1CN1CCCNCCNCCCNCC1,92TH001 CLADE E R5,-,PBMC,p24,-,inhibition,0.5 µM,60%
O=c1[nH]cnc2c1ncn2[C@H]1CC[C@@H](CO)O1,Recombinant,RT-M41L V118I M184V,HeLa,luciferase,-,EC50,-,4.48 µM
O=C1N(Cc2ccc(CO)cc2)[C@H](Cc2ccccc2)[C@H](O)[C@@H](O)[C@@H](Cc2ccccc2)N1Cc1ccc(CO)cc1,2 clinical isolate,-,PBMC,p24,-,inhibition,0.16 µM,90%
CC(=O)N1CCC(C(=O)N(CCCN2CCC(Cc3ccc(C(N)=O)cc3)CC2)c2ccc(C)c(Cl)c2)CC1,R5 subtype F_2 recombinant,-,U87 (CD4+ CCR5+) + U87,luciferase,-,EC50,-,0.0055 µM
CC(C)CN(C[C@@H](O)[C@H](Cc1ccccc1)NC(=O)[C@H](CC(N)=O)NC(=O)c1ccc2ccccc2n1)C(=O)NC(C)(C)C,NL4-3,PR-L10R M46I,MT-4,p24,-,EC95,-,0.2 µM
O=C(O)P(=O)(O)O,IIIB,-,PBL,RT activity,14 d,inhibition,256 µM,100%
Cn1c2ccccc2c2c1cc(C#N)c(=O)n2-c1ccc([N+](=O)[O-])cc1,Recombinant,RT-M41L A62V S68N G112S V118I M184V,HeLa,luciferase,-,EC50,-,>0.0451 µM
Cc1ccnc2c1NC(=O)c1cccnc1N2C1CC1,-,RT-L74V K103N,MT-4,-,-,EC95,-,>3 µM
CC(C)=CCN1Cc2cc(Cl)cc3[nH]c(=S)n(c23)C[C@@H]1C,HIVRTMF (RT L74V),RT-L74V T215Y,HT4 + HT4 LacZ-1,plaque count,-,EC50,-,0.1 µM
Cc1cn([C@H]2C[C@H](N=[N+]=[N-])[C@@H](CO)O2)c(=O)[nH]c1=O,NRTI resistant,RT-V75I F77L F116Y Q151M,HeLa,luciferase,-,fold resistance,-,43.9
O=C1N(Cc2ccc(CO)cc2)[C@H](Cc2ccccc2)[C@H](O)[C@@H](O)[C@@H](Cc2ccccc2)N1Cc1ccc(CO)cc1,NL4-3,PR-L10R L63P V82T I84V,MT-4,p24,-,EC95,-,3 µM
CCOc1cccc(Cc2cc(C3CCN(C[C@H]4CN([C@@H](C(=O)O)C(C)(C)C)C[C@@H]4c4cccc(F)c4)CC3)n(CC)n2)c1,BaL,-,HeLa,β-galactosidase,50% human serum,EC90,-,0.1 µM
Cc1cc(S(N)(=O)=O)ccc1NC(=O)COc1ccc(Cl)cc1C(=O)c1cc(Cl)cc(C#N)c1,NNRTI-resistant (RT K103N L100I),RT-K103N L100I,MAGI,β-galactosidase,-,EC50,-,0.0015 µM

Repeating the final 2 entries:

SMILES	strain or isolate	changes	cell line	read by	setting	endpoint	tested at	value
CCOc1cccc(Cc2cc(C3CCN(C[C@H]4CN([C@@H](C(=O)O)C(C)(C)C)C[C@@H]4c4cccc(F)c4)CC3)n(CC)n2)c1	BaL	-	HeLa	β-galactosidase	50% human serum	EC90	-	0.1 µM
Cc1cc(S(N)(=O)=O)ccc1NC(=O)COc1ccc(Cl)cc1C(=O)c1cc(Cl)cc(C#N)c1	NNRTI-resistant (RT K103N L100I)	RT-K103N L100I	MAGI	β-galactosidase	-	EC50	-	0.0015 µM